Test results reported in publication PMC6950094, “Variants of Escherichia coli Subtilase Cytotoxin Subunits Show Differences in Complex Formation In Vitro” (Toxins, 2019).

Legend:
[1] = target: SubB2-2-His (His-tagged B-subunit of subtilase cytotoxin variant SubAB2-2) (Escherichia coli (STEC)); test: SEC
[2] = target: SubA1-His (His-tagged A-subunit of subtilase cytotoxin variant SubAB1) (Escherichia coli (STEC), UniProt Q6EZC2 22-347); test: ITC
[3] = target: the molecule itself; test: SEC

SubB2-2-His (His-tagged B-subunit of subtilase cytotoxin variant SubAB2-2) (natural protein)
stoichiometry N [1]: 5

B1: SubB1-His (His-tagged B-subunit of subtilase cytotoxin variant SubAB1) (natural protein)
chain: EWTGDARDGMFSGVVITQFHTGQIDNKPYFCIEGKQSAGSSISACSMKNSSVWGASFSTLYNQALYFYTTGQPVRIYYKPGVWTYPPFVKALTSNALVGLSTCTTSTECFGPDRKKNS
Kd [2]: 3.9 µM | dH [2]: 1.6 kcal/mol | stoichiometry N [2]: 4.9 | stoichiometry N [3]: 5
